Test results reported in patent US20240382467A1, “COMPOSITIONS AND METHODS FOR TREATING AND/OR PREVENTING LUNG INJURY” (published 2024).

System: K18-hACE mice
Test: BALF cytokine and chemokine composition by Luminex, S1SP intratracheal and KVX-053 (Example 15, Table 3)
Details: 5 μg S1SP intratracheally; saline or 20 mg/kg KVX-053 1 h later; 72 h; mean ± SD, N = 3

N=C1C(=O)NC(=O)c2cc(-c3ccccc3)sc21
EOTAXIN in BALF: 3.98 ± 2.74 pg/mL
GM-CSF in BALF: 1.30 ± 0.01 pg/mL
IFNg in BALF: 0.37 ± 0.06 pg/mL
IL-1β in BALF: 0.59 ± 0.00< pg/mL
IL-6 in BALF: 85.54 ± 44.95 pg/mL
IL-12p70 in BALF: 0.97 ± 0.00< pg/mL
IL-17 in BALF: 0.23 ± 0.02 pg/mL
KC (Keratinocytes-derived chemokine) in BALF: 20.35 ± 1.97 pg/mL
MCP-1 (CCL3 Antigen) in BALF: 30.02 ± 33.91 pg/mL
MIP-1α in BALF: 44.21 ± 17.10 pg/mL
RANTES in BALF: 2.68 ± 3.00 pg/mL
TNF-α in BALF: 3.77 ± 3.10 pg/mL
VEGF in BALF: 2.54 ± 1.58 pg/mL
